Data source: PubChem BioAssay AID504761 (Drosophila RNAi Screening Center, 2011)
Test: 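Fly genes whose silencing reduces dengue virus type 2 infection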 (primary screen). System: D.Mel-2 cells from Drosophila. Reagent: long dsRNA against Drosophila genes. Conditions: infection with dengue virus type 2; dose and infection time not stated. Measured: 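Per well on two replicate plates, imaging gave the percent of cells positive for viral envelope protein, ranked by infection, and a nuclear count of cells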. Scale: infection score: higher = more virus-infected cells. Hit rule: 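Low infection ranks in the two replicates (chance level up to 0.065) followed by a retest with a 1.5-fold or larger significant decrease, p below 0.05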. Meaning of the calls: active = confirmed: knock-down lowers infection; inactive = not picked or not confirmed.
The screen tested about 22,000 reagents; shown is an unselected part of those that have a named target and a result. Over the whole deposit, 116 (0.52%) got an active call. 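Calls depend on retest data that are not deposited; infection was ranked per plate without normalising between plates; the unit of the infection score is not given.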 The numbers tell different reagents against one gene apart. Not all columns of the deposit are shown. Not given: the amount of reagent, the time to read-out.

| Gene | reagent | infection score, replicate 1 | call |
| --- | --- | --- | --- |
| CG14767 (GeneID 50250) | 1 | 2.52 | inactive |
| CG14767 (GeneID 50250) | 2 | 14.7 | inactive |
| CG4884 (GeneID 43357) | 1 | 1.79 | inactive |
| CG4884 (GeneID 43357) | 2 | 6.14 | inactive |
| nrm (GeneID 40515) | 1 | 1.77 | inactive |
| nrm (GeneID 40515) | 2 | 11.2 | inactive |
| ubl (GeneID 35592) | 1 | 7.85 | inactive |
| CG7840 (GeneID 34136) | 1 | 1.45 | inactive |
| CG17217 (GeneID 34644) | 1 | 2.88 | inactive |
| CG14459 (GeneID 40476) | 1 | 1.09 | inactive |
| drl (GeneID 44355) | 1 | 41.9 | inactive |
| drl (GeneID 44355) | 2 | 3.39 | inactive |
| yuri (GeneID 34894) | 1 | 1.92 | inactive |
| yuri (GeneID 34894) | 2 | 1.43 | inactive |
| yuri (GeneID 34894) | 3 | 12.1 | inactive |
| yuri (GeneID 34894) | 4 | 7.16 | inactive |
| fra (GeneID 36377) | 1 | 19.1 | inactive |
| DnaJ-H (GeneID 34707) | 1 | 3.47 | inactive |
| oc (GeneID 31802) | 1 | 1.15 | inactive |
| phu (GeneID 41135) | 1 | 19.2 | inactive |

3 of these entries in another layout.
Gene	reagent	infection score, replicate 1	call
CG14459 (GeneID 40476)	1	1.09	inactive
drl (GeneID 44355)	1	41.9	inactive
drl (GeneID 44355)	2	3.39	inactive

Continued:
| Gene | reagent | infection score, replicate 1 | call |
| --- | --- | --- | --- |
| CG6569 (GeneID 42573) | 1 | 0.66 | active |
| CG6951 (GeneID 40222) | 1 | 12.5 | inactive |
| CG9040 (GeneID 39546) | 1 | 2.17 | inactive |
| lab (GeneID 40817) | 1 | 2.37 | inactive |
| lab (GeneID 40817) | 2 | 4.32 | inactive |
| Z600 (GeneID 39673) | 1 | 5.04 | inactive |
| CG30062 (GeneID 246428) | 1 | 9.15 | inactive |
| CG3795 (GeneID 31128) | 1 | 2.37 | inactive |
| CG3795 (GeneID 31128) | 2 | 3.34 | inactive |
| CG3419 (retired record) (GeneID 37896) | 1 | 3.6 | inactive |
| CG3419 (retired record) (GeneID 37896) | 2 | 6.78 | inactive |
| Oseg2 (GeneID 38282) | 1 | 5.13 | inactive |
| CG12118 (GeneID 31857) | 1 | 3.76 | inactive |
| CG13423 (GeneID 37315) | 1 | 1.64 | inactive |
| Akap200 (GeneID 34170) | 1 | 7.45 | inactive |
| CG14356 (GeneID 41722) | 1 | 6.15 | inactive |
| Fhos (GeneID 39004) | 1 | 1 | inactive |
| Fhos (GeneID 39004) | 2 | 4.45 | inactive |
| Fhos (GeneID 39004) | 3 | 17.2 | inactive |
| Fhos (GeneID 39004) | 4 | 1.51 | inactive |
| Fhos (GeneID 39004) | 5 | 8.52 | inactive |
| CG12926 (GeneID 35996) | 1 | 2.52 | inactive |
| CG12926 (GeneID 35996) | 2 | 16.9 | inactive |
| PH4alphaEFB (GeneID 43620) | 1 | 20.3 | inactive |
| PH4alphaEFB (GeneID 43620) | 2 | 6.65 | inactive |
| CG13926 (GeneID 38192) | 1 | 6.16 | inactive |
| Trm7-32 (GeneID 42056) | 1 | 6.42 | inactive |
| Polr1A (GeneID 36617) | 1 | 43.3 | inactive |
| peg (GeneID 50050) | 1 | 5.66 | inactive |
| peg (GeneID 50050) | 2 | 8.51 | inactive |
| CG18011 (GeneID 36068) | 1 | 9.47 | inactive |
| CG18011 (GeneID 36068) | 2 | 20.5 | inactive |
| CG11044 (GeneID 37281) | 1 | 3.69 | inactive |
| CG11044 (GeneID 37281) | 2 | 3.38 | inactive |
| Graf (GeneID 32522) | 1 | 1.03 | inactive |
| RpL23A (GeneID 38208) | 1 | 6.78 | inactive |
| RpL23A (GeneID 38208) | 2 | 4.54 | inactive |
| RpL23A (GeneID 38208) | 3 | 3.31 | inactive |
